From US20090281028A1

Each binder was assayed against human Kv1.3 channel (human), P22001 (assay: cell-based or functional assay).

Binder | Kv1.3 IC50 (IonWorks electrophysiology) [pM] | WB/IFNg IC50 (human whole blood) [pM] | WB/IL-2 IC50 (human whole blood) [pM]
GVIINVKCKIERQCLEPCKKAGMRFGKCMNGKCHCTPK (modifications not checked) [OSK1 S11E] | > 3330 | 16900 | 39900
GVIINVKCKISEQCLEPCKKAGMRFGKCMNGKCHCTPK (modifications not checked) [OSK1 R12E] | 89.7 | 2000 | 1790
GVIINVKCKISRECLEPCKKAGMRFGKCMNGKCHCTPK (modifications not checked) [OSK1 Q13E] | 45.9 | 799 | 1060
GVIINVKCKISRQCEEPCKKAGMRFGKCMNGKCHCTPK (modifications not checked) [OSK1 L15E] | 47.5 | 1060 | 785
GVIINVKCKISRQCLEECKKAGMRFGKCMNGKCHCTPK (modifications not checked) [OSK1 P17E] | 14.5 | 947 | 520
GVIINVKCKISRQCLEPCEKAGMRFGKCMNGKCHCTPK (modifications not checked) [OSK1 K19E] | 23.5 | – | –
GVIINVKCKISRQCLEPCKEAGMRFGKCMNGKCHCTPK (modifications not checked) [OSK1 K20E] | 25.4 | – | –
GVIINVKCKISRQCLEPCKKEGMRFGKCMNGKCHCTPK (modifications not checked) [OSK1 A21E] | 7.37 | 138 | 117
GVIINVKCKISRQCLEPCKKAEMRFGKCMNGKCHCTPK (modifications not checked) [OSK1 G22E] | 13.9 | 164 | 109
GVIINVKCKISRQCLEPCKKAGERFGKCMNGKCHCTPK (modifications not checked) [OSK1 M23E] | 24.3 | 666 | 606
GVIINVKCKISRQCLEPCKKAGMREGKCMNGKCHCTPK (modifications not checked) [OSK1 F25E] | > 3330 | – | –
GVIINVKCKISRQCLEPCKKAGMRFEKCMNGKCHCTPK (modifications not checked) [OSK1 G26E] | > 3330 | 100000 | 100000
GVIINVKCKISRQCLEPCKKAGMRFGECMNGKCHCTPK (modifications not checked) [OSK1 K27E] | > 3330 | 7140 | 5550
GVIINVKCKISRQCLEPCKKAGMRFGKCENGKCHCTPK (modifications not checked) [OSK1 M29E] | > 3330 | 24600 | 27100
GVIINVKCKISRQCLEPCKKAGMRFGKCMNEKCHCTPK (modifications not checked) [OSK1 G31E] | 12 | 111 | 95
GVIINVKCKISRQCLEPCKKAGMRFGKCMNGECHCTPK (modifications not checked) [OSK1 K32E] | 15.6 | 63 | 62
GVIINVKCKISRQCLEPCKKAGMRFGKCMNGKCECTPK (modifications not checked) [OSK1 H34E] | 330 | 2380 | 1620
GVIINVKCKISRQCLEPCKKAGMRFGKCMNGKCHCEPK (modifications not checked) [OSK1 T36E] | 161 | 2420 | 1740
GVIINVKCKISRQCLEPCKKAGMRFGKCMNGKCHCTEK (modifications not checked) [OSK1 P37E] | 62.7 | 1600 | 239
GVIINVKCKISRQCLEPCKKAGMRFGKCMNGKCHCTPE (modifications not checked) [OSK1 K38E] | 25.8 | 713 | 526

Molecular target: T1, human Kv1.1 voltage-gated potassium channel (human), Q09470
T1 chain: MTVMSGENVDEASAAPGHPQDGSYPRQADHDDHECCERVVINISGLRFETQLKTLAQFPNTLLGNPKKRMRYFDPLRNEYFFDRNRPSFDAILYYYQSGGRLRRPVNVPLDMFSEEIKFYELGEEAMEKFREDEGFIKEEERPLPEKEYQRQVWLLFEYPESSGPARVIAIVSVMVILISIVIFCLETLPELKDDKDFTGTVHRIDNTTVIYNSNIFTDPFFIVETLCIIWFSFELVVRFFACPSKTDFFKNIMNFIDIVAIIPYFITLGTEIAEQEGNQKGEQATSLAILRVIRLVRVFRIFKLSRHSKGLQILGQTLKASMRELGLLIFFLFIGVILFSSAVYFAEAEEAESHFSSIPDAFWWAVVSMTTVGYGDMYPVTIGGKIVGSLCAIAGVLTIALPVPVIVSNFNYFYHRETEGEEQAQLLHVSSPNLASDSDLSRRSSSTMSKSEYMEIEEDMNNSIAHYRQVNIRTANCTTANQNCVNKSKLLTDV
Test: cell-based or functional assay

Binder | Kv1.1 (IC50, pM); whole cell patch clamp ePhys [pM]
GVIINVKCKIRRQCLEPCKKAGMRFGKCMNGKCHCTPK (modifications not checked) [OSK1 peptide analog S11R] | 9130
GVIINVKCKISRQCEEPCKKAGMRFGKCMNGKCHCTPK (modifications not checked) [OSK1 peptide analog L15E] | 65000
GVIINVKCKISRQCLEPCKKAGMRFGKCRNGKCHCTPK (modifications not checked) [OSK1 peptide analog M29R] | 23000
GVIINVKCKISRQCLEPCKKAGMRFGKCMAGKCHCTPK (modifications not checked) [OSK1 peptide analog N30A] | 10200
GVIINVKCKISRQCLEPCKKAGMRFGKCMNGKCACTPK (modifications not checked) [OSK1 peptide analog H34A] | 12800
GVIINVKCKISRQCLEPCKKAGMRFGKCMNGKCECTPK (modifications not checked) [OSK1 peptide analog H34E] | 39400
GVIINVKCKISRQCLEPCKKAGMRFGKCMNGKCHCEPK (modifications not checked) [OSK1 peptide analog T36E] | 83900
GVIINVKCKISRQCLEPCKKAGMRFGKCMNGKCHCTEK (modifications not checked) [OSK1 peptide analog P37E] | 15700

Each binder was assayed against human Kv1.3 voltage-gated potassium channel (human), P22001 (assay: cell-based or functional assay).

Binder | Kv1.3 (IC50, pM); whole cell patch clamp ePhys [pM] | Kv1.3 Selectivity (=Kv1.1/Kv.3 IC50) [fold] | WB/IFNg (IC50, nM); human whole blood [nM] | WB/IL-2 (IC50, nM); human whole blood [nM]
GVIINVKCKIRRQCLEPCKKAGMRFGKCMNGKCHCTPK (modifications not checked) [OSK1 peptide analog S11R] | 40 | 228 | – | –
GVIINVKCKISRQCEEPCKKAGMRFGKCMNGKCHCTPK (modifications not checked) [OSK1 peptide analog L15E] | 190 | 342 | – | –
GVIINVKCKISRQCLEPCKKAGMRFGACMNGKCHCTPK (modifications not checked) [OSK1 peptide analog K27A] | 289 | 35 | – | –
GVIINVKCKISRQCLEPCKKAGMRFGKCRNGKCHCTPK (modifications not checked) [OSK1 peptide analog M29R] | 760 | 30 | – | –
GVIINVKCKISRQCLEPCKKAGMRFGKCMAGKCHCTPK (modifications not checked) [OSK1 peptide analog N30A] | 766 | 14 | – | –
GVIINVKCKISRQCLEPCKKAGMRFGKCMNGKCACTPK (modifications not checked) [OSK1 peptide analog H34A] | 16 | 797 | – | –
GVIINVKCKISRQCLEPCKKAGMRFGKCMNGKCECTPK (modifications not checked) [OSK1 peptide analog H34E] | 1320 | 30 | – | –
GVIINVKCKISRQCLEPCKKAGMRFGKCMNGKCHCEPK (modifications not checked) [OSK1 peptide analog T36E] | 1920 | 44 | – | –
GVIINVKCKISRQCLEPCKKAGMRFGKCMNGKCHCTEK (modifications not checked) [OSK1 peptide analog P37E] | 241 | 65 | – | –
GVIINVKCKISAQCLKPCKDAGMRFGKCMNGKCHCTPK (modifications not checked) [OSK1 peptide analog R12A, E16K, K20D] | – | – | 0.092 | 0.041
GIINVKCKISAQCLKPCRDAGMRFGKCMNGKCACTPK (modifications not checked) [OSK1 peptide analog des1, V2G, R12A, E16K, K19R, K20D, H34A] | – | – | – | 1.5
GVIINVKCKISAQCLEPCKKAGMRFGKCMNGKCHCTPK (modifications not checked) [20k PEG-OSK1[Ala12]] | – | – | 0.137 | 0.27
GVIINVKCKISRQCLEPCKKAGMRFGKCANGKCHCTPK (modifications not checked) [20k PEG-OSK1[Ala29]] | – | – | 5.58 | 5.76

Molecular target: T2, human Kv1.1 channel (human), Q09470
T2 chain: T1 chain
Test: cell-based or functional assay

Binder | Kv1.1 IC50 (IonWorks electrophysiology) [pM]
GVIINVKCKIERQCLEPCKKAGMRFGKCMNGKCHCTPK (modifications not checked) [OSK1 S11E] | > 3330
GVIINVKCKISEQCLEPCKKAGMRFGKCMNGKCHCTPK (modifications not checked) [OSK1 R12E] | 193
GVIINVKCKISRECLEPCKKAGMRFGKCMNGKCHCTPK (modifications not checked) [OSK1 Q13E] | 6.28
GVIINVKCKISRQCEEPCKKAGMRFGKCMNGKCHCTPK (modifications not checked) [OSK1 L15E] | 436
GVIINVKCKISRQCLEECKKAGMRFGKCMNGKCHCTPK (modifications not checked) [OSK1 P17E] | 1.81
GVIINVKCKISRQCLEPCEKAGMRFGKCMNGKCHCTPK (modifications not checked) [OSK1 K19E] | 13.7
GVIINVKCKISRQCLEPCKEAGMRFGKCMNGKCHCTPK (modifications not checked) [OSK1 K20E] | 5.76
GVIINVKCKISRQCLEPCKKEGMRFGKCMNGKCHCTPK (modifications not checked) [OSK1 A21E] | < 1.52
GVIINVKCKISRQCLEPCKKAEMRFGKCMNGKCHCTPK (modifications not checked) [OSK1 G22E] | 2.56
GVIINVKCKISRQCLEPCKKAGERFGKCMNGKCHCTPK (modifications not checked) [OSK1 M23E] | 10.4
GVIINVKCKISRQCLEPCKKAGMREGKCMNGKCHCTPK (modifications not checked) [OSK1 F25E] | > 3330
GVIINVKCKISRQCLEPCKKAGMRFEKCMNGKCHCTPK (modifications not checked) [OSK1 G26E] | > 3330
GVIINVKCKISRQCLEPCKKAGMRFGECMNGKCHCTPK (modifications not checked) [OSK1 K27E] | 549
GVIINVKCKISRQCLEPCKKAGMRFGKCENGKCHCTPK (modifications not checked) [OSK1 M29E] | > 3330
GVIINVKCKISRQCLEPCKKAGMRFGKCMNEKCHCTPK (modifications not checked) [OSK1 G31E] | 2.37
GVIINVKCKISRQCLEPCKKAGMRFGKCMNGECHCTPK (modifications not checked) [OSK1 K32E] | 17.3
GVIINVKCKISRQCLEPCKKAGMRFGKCMNGKCECTPK (modifications not checked) [OSK1 H34E] | 1690
GVIINVKCKISRQCLEPCKKAGMRFGKCMNGKCHCEPK (modifications not checked) [OSK1 T36E] | > 3330
GVIINVKCKISRQCLEPCKKAGMRFGKCMNGKCHCTEK (modifications not checked) [OSK1 P37E] | 622
GVIINVKCKISRQCLEPCKKAGMRFGKCMNGKCHCTPE (modifications not checked) [OSK1 K38E] | 34.3
